Reference: paper PMC6151560, “Antibacterial and Antitubercular Activities of Cinnamylideneacetophenones” (Molecules : A Journal of Synthetic Chemistry and Natural …, 2017)

Assays:
[1] = tested on: MRC-5 (human lung fibroblast cell line, ATCC CCL-171); assay: Cytotoxicity on lung cells (resazurin), MRC-5; settings: for SI Mt (MRC-5): SI = IC50 MRC-5 / MIC M. tuberculosis; for SI Sa (MRC-5): SI = IC50 MRC-5 / MIC S. aureus
[2] = tested on: A549 (human lung adenocarcinoma epithelial cell line, ATCC CCL-185); assay: Cytotoxicity on lung cells (resazurin), A549; assay type: cell-based

Structure (SMILES) | SI Mt (MRC-5) [1] | SI Sa (MRC-5) [1] | SI Mt (A549) ([2]; SI = IC50 A549 / MIC M. tuberculosis) | SI Sa (A549) ([2]; SI = IC50 A549 / MIC S. aureus)
O=C(/C=C/C=C/c1ccccc1)c1ccc(O)cc1 [Compound 4, (2E,4E)-1-(4-hydroxyphenyl)-5-phenylpenta-2,4-dien-1-one] | 0.6 | 0.7 | 0.9 | 1.0
O=C(/C=C/C=C/c1ccccc1)c1cccc(O)c1 [Compound 3, (2E,4E)-1-(3-hydroxyphenyl)-5-phenylpenta-2,4-dien-1-one] | 0.5 | 0.6 |  | 
